Measured values reported in ChEMBL document CHEMBL1142398, “Chemical stability of the peroxide bond enables diversified synthesis of potent tetraoxane antimalarials” (J Med Chem, 2008).

Experiments:
[1] = test system: Plasmodium falciparum; details: D6
[2] = test system: Plasmodium falciparum; details: W2
[3] = test system: Plasmodium falciparum; details: TM91C235

Molecule `[N-]=[N+]=NCC1CCC2(CC1)OOC1(CCCCC1)OO2` has an IC90 [1] of 20.3 nM, an IC90 [2] of 11 nM and an IC90 [3] of 22.2 nM.
